From the supplement of paper PMC9931576
Human monoclonal antibodies against the spike receptor-binding domain (heavy:light variable regions). IC50 against pseudoviruses bearing the spike of naturally observed variants; lower = stronger; >10 µg/ml means not reached at the top dose. No active / inactive call. The stated detection limit is 0.0005 µg/ml; values near or below 0.001 µg/ml lie at the floor of the assay.

B1: BD56-419 (protein)
chain 1: QITLKESGPTLVKPTQTLTLTCTFSGFSLTTSGVGVGWIRQPPGKALEWLALIYWDEDKRYSPSLKSRLTITKDTSKNQVVLTMNNMDPVDTATYYCAHHTIPTIYDYWGQGTLVTVSS
chain 2: QSALTQPASVSGSPGQSITISCTATSSDVGAYNYVSWYQQHPGKAPKLMIYDVSKRPSGVSDRFSGSKSGNTASLTISGLQAEDEADYYCSSYTTTSTVFGGGTKLTVL
B2: BD56-395 (protein)
chain 1: EVQLVQSGAEVKKPGESLRISCQASGYTLANYWVAWVRQVPGKGLEWIGVSYPDDSDSRISPSFQGQVVFSADKSLNTAYLQWSSVRPSDTGTYYCSRQRWGYCVGKNCESEGYYFMAMDVWGQGTTVTVSS
chain 2: QAVVTQPSSLSGSPGTTARLTCTLRSGINVAAYTLYWYQQKSGGPPQYVLKYKSPSDKQVASGVSSRFSAFKDASANAGILVISRLMSDDEADYYCVIWHGGVWVFGGGTKLTVL
B3: BD56-400 (protein)
chain 1: EVQLVESGGGLVQPGGSLRLSCAASGLTVSSNYMSWVRQAPGKGLEWVSIIYPGGSTYYADSVKGRFTISRHNSKNTLYLQMNSLRGEDTAVYYCARDSRVNGMDVWGQGTTVTVSS
chain 2: DIQMTQSPSSLSASVGDRVTITCQASQDINNYLNWYQQKPGKAPKLLIYDASNLETGVPSRFSGSGSGTDFTFTISSLQPEDIATYYCQQYDNLPITFGQGTRLEIK
B4: BD56-326 (protein)
chain 1: QVQLVESGGGVVQPGRSLRLSCAASGFTFRRYGMHWVRQAPGKGLEWVAVTSYDGTKEYYADSVKGRFTISRDNSKNTLYLQMNSLRAEDTAVYYCAKVAGEYCSGGDCLTGTFDYWGQGTLVTVSS
chain 2: DIQMTQSPSTLSASVGDRVTIACRASQNIRRWLAWYQQKPGKAPKLLIYQAFNLESGVPSRFSGSGSGTEFTLTISSLQPDDFATYYCQQYNSFNSFGQGTILEIK
B5: BD56-332 (protein)
chain 1: QVQLVQSGAEMQKPGASVKVSCRASEYTFTNYYFHWVRQAPGQGLEWMGIINPSGGSTTYAQNFQGRVTMTGDTSTSTVYMELSSLRSDDTAVYYCATGGFVPNHSYAMEVWGQGTTVTISS
chain 2: EIVMTQSPATLSVSPGERATLSCRASQSVSSKLAWYQQKPGQAPRLLIYDAATRTTGVPARFSGSGSGTEFTLSISGLQSEDFAVYYCQQYKNWPFSFGGGTKVEIK
B6: BD56-411 (protein)
chain 1: EVQLVESGGGLVRPGGSLRLSCAASGVTVSSNYMNWVRQAPGKGLEWVSLFYSGGSTYYADSVKGRFTISRDNSKNTLYLQMNSLRDEDTAVYYCARDLREVGGMDVWGQGTTVTVSS
chain 2: QSVLTQPPSASGTPGQRVTISCSGSSSKIGSNDVYWYQQLPGTAPKLLIFRNSQRPSGVPDRFSGSKSGTSASLAISGLRSEDEADYYCAVWDESLSDHYVFGTGTKVTVL
B7: BD56-414 (protein)
chain 1: EVQLVESGGGLVQPGGSLRLSCAASEITVSSNYMNWVRQAPGKGLEWVSVIYPGGSTFYADSVKGRFTISRDHSKNTLYLQMNSLRAEDTAVYYCAREGLISRSLTFDIWGQGTMVTVAS
chain 2: DIQMTQSPSSLSASVGDRVTITCRASQSINNNLNWYQQKPGKAPKLLIYATSNLQSGVPSRFSGSGSGTHFTLTISSLRPEDFATYYCQQTYSTPPYTFGQGTKLEVK
B8: BD56-234 (protein)
chain 1: EVQLVESGGGLVQPGGSLRLSCAASGVTVRSNYMSWVRQAPGKGLEWVSLIYSGGSTFYADSVRGRFTISRDNSKNTLYLQMNSLRAEDTAVYYCARDLQVFGMDVWGQGTTVTVSS
chain 2: IQLTQSPSSLSASVGDTLTITCRASQGISSDLAWYQQKPGKAPKLLIYAASTLQSGVPSRFSGSGSGTDFTLTISSLQPEDFATYYCQQLNSYTYPFGQGTKLEIK
B9: BD56-427 (protein)
chain 1: QVQLVQSGSELKKPGASVKVSCKASGYTFLNYAMNWVRQAPGQGLEWMGWINTNTGNPTYAQGFTGRFVFSLDTSVSTAYLQISSLKAEDTAVYYCARIGARDSSSWLDDAFDIWGQGTMLTVSS
chain 2: DIVMTQSPDSLAVSLGERATINCKSSHSVLYSSNNQNFLAWYQQKPGQTPKLLIYWASTRESGVPDRFSGSGSGTDFTLTISSLQAEDVAVYYCQQYYSTPLTFGGGTKVEIK
B10: BD56-428 (protein)
chain 1: QGQLVQSGPEVKKPGTSVKVSCKASRFTFTTSAVQWVRQARGQRLEWIGWIAPGSTKIDYAQKFQDRVTMTRDMSTSTAYMELSSLRSEDTAMYYCAAPYCSGGRCLDGFDIWGQGTMVTVSS
chain 2: EIVLTQSPGTLSLSPGDRATLSCRASQTISRSYLAWYQQKGGQAPRLLIYGVSSRATGIPDRFSGSGSGTDFTLTIGRLQPEDFAVYYCQQYGTSPWTFGQGTKVEMK
B11: BD56-327 (protein)
chain 1: EVQLQQWGAGLLKPSETLSLTCAVYGGSLSDYYWSWLRQPPGKGLEWIGEINHSGSTNYNPSLKSRVTISVDTSKNQFSLKLSSVTAADTAVYFCARVGGSYYSAEYFQYWGQGTLVTVSS
chain 2: DIVLTQSPGTLSLSPGERATLSCRASQSVRSSSLAWYQQKPGQAPRLLIYGASSRATGIPDRFNGSGSGTDFTLTISRLEPDDFAVYYCQQYGSSPLTFGGGTKVEIK
B12: BD56-265 (protein)
chain 1: QVQLVQSGAEVKKPGASVKVSCKASGYTFTGYFLYWVRQAPGQGLQWMGRINPNSGDTDYAQKFQGRVTMTRDTSISTAYLEMSRLRSDDTAVYYCAREPGYDILTDSYGDYWGQGTLVTVSS
chain 2: EIVMTQSPATLSVSPGERATLSCRASQSVSNNLAWYQQKPGQAPRLLIYGASTRATGIPARFSGSGSGTEFTLTINSLQSEDFAVYYCQHYHNWPPWTFGQGTKVEIK

Assays:
Test in all cases: pseudovirus neutralization IC50; higher = weaker neutralization
[1] = target: SARS-CoV-2 Omicron BA.1 spike pseudovirus
Method: (§1)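 Single-round VSV luciferase pseudovirus mixed with antibody dilutions for 1 h and put on Huh-7 cells for about a day; IC50 from the dose curve.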

[2] = target: SARS-CoV-2 Omicron BA.2 spike pseudovirus
Method: as §1

[3] = target: SARS-CoV-2 Omicron BA.2.75 spike pseudovirus
Method: as §1

[4] = target: SARS-CoV-2 Omicron BA.5 spike pseudovirus
Method: as §1

[5] = target: SARS-CoV-2 Omicron BQ.1.1 spike pseudovirus
Method: as §1

[6] = target: SARS-CoV-2 Omicron XBB spike pseudovirus
Method: as §1

[7] = target: SARS-CoV-2 early D614G spike pseudovirus
Method: as §1

Row | Binder | pseudovirus neutralization IC50 [1] | pseudovirus neutralization IC50 [2] | pseudovirus neutralization IC50 [3] | pseudovirus neutralization IC50 [4] | pseudovirus neutralization IC50 [5] | pseudovirus neutralization IC50 [6] | pseudovirus neutralization IC50 [7]
1 | B1 | 0.146 µg/mL | 0.00765 µg/mL | 0.251 µg/mL | 0.00969 µg/mL | > 10 µg/mL | > 10 µg/mL | 0.00241 µg/mL
2 | B2 | 1.02 µg/mL | 1.14 µg/mL | 2.95 µg/mL | 3.05 µg/mL | 2.77 µg/mL | 3.16 µg/mL | > 10 µg/mL
3 | B3 | 0.001 µg/mL | 0.00128 µg/mL | 0.399 µg/mL | 0.00284 µg/mL | > 10 µg/mL | > 10 µg/mL | 0.126 µg/mL
4 | B4 | > 10 µg/mL | > 10 µg/mL | > 10 µg/mL | > 10 µg/mL | > 10 µg/mL | > 10 µg/mL | > 10 µg/mL
5 | B5 | > 10 µg/mL | > 10 µg/mL | > 10 µg/mL | > 10 µg/mL | > 10 µg/mL | > 10 µg/mL | > 10 µg/mL
6 | B6 | 0.181 µg/mL | 0.161 µg/mL | > 10 µg/mL | > 10 µg/mL | > 10 µg/mL | > 10 µg/mL | 0.00465 µg/mL
7 | B7 | 5.12 µg/mL | 2.74 µg/mL | > 10 µg/mL | 2.53 µg/mL | > 10 µg/mL | > 10 µg/mL | 0.00534 µg/mL
8 | B8 | 0.0809 µg/mL | 0.0386 µg/mL | > 10 µg/mL | 0.332 µg/mL | > 10 µg/mL | > 10 µg/mL | 0.00104 µg/mL
9 | B9 | > 10 µg/mL | > 10 µg/mL | > 10 µg/mL | > 10 µg/mL | > 10 µg/mL | > 10 µg/mL | 0.0105 µg/mL
10 | B10 | 0.00374 µg/mL | 0.00205 µg/mL | 0.00233 µg/mL | 1.07 µg/mL | 1.14 µg/mL | > 10 µg/mL | 0.00138 µg/mL
11 | B11 | 0.262 µg/mL | 0.36 µg/mL | 0.226 µg/mL | 0.529 µg/mL | 0.792 µg/mL | > 10 µg/mL | 1.23 µg/mL
12 | B12 | 0.0116 µg/mL | 0.00967 µg/mL | 0.13 µg/mL | > 10 µg/mL | > 10 µg/mL | > 10 µg/mL | 0.111 µg/mL
